Paper PMC9933715, “N-Phenylpyridine-3-Carboxamide and 6-Acetyl-1H-Indazole Inhibit the RNA Replication Step of the Dengue Virus Life Cycle” (Antimicrobial Agents and Chemotherapy, 2023)

Test system: sg-DENV-R2H
Experiment: Resistance selection with selectable subgenomic replicon sg-DENV-R2H in Huh7.5 cells
Type: cell-based, Dengue virus
Conditions: 100 µM, hygromycin 500 µg/mL, 31 days of dual selection

O=C(Nc1ccccc1)c1cccnc1 [NPP3C, N-phenylpyridine-3-carboxamide]
selection of resistant cells (genetic barrier to resistance): unable to select resistant cells
